Each structure is given as a SMILES string. “And” between values parts separate entries of the source, which are not always exact repeats. Equal values may be shown once.

The experiment deals with Human immunodeficiency virus 1. Nature of the experiment: Inhibition of HIV1 reverse transcriptase relative to AZT triphosphate. As to conditions: concentration not given here.

With `CNP(=O)(O)C(F)(F)P(=O)(O)OP(=O)(O)OC[C@@H]1O[C@H](n2cc(C)c(=O)[nH]c2=O)C[C@H]1N=[N+]=[N-]`, the inhibition – broadly, the relative decrease from the control value, in per cent – came out at 14.8%.

`Cc1cn([C@@H]2C[C@@H](N=[N+]=[N-])[C@H](COP(=O)(O)OP(=O)(O)C(F)(F)P(=O)(O)F)O2)c(=O)[nH]c1=O` returned an inhibition of 18.8%. Under `CCNP(=O)(O)C(F)(F)P(=O)(O)OP(=O)(O)OC[C@@H]1O[C@H](n2cc(C)c(=O)[nH]c2=O)C[C@H]1N=[N+]=[N-]` stands 49.4%. Under `Cc1cn([C@@H]2C[C@@H](N=[N+]=[N-])[C@H](COP(=O)(O)OP(=O)(O)C(F)(F)P(=O)(O)Nc3ccccc3)O2)c(=O)[nH]c1=O` stands 30.2%. In the case of `Cc1cn([C@@H]2C[C@@H](N=[N+]=[N-])[C@H](COP(=O)(O)OP(=O)(O)C(F)(F)P(=O)(O)Oc3ccccc3)O2)c(=O)[nH]c1=O` it was 36.1%; in that of `COP(=O)(O)C(F)(F)P(=O)(O)OP(=O)(O)OC[C@@H]1O[C@H](n2cc(C)c(=O)[nH]c2=O)C[C@H]1N=[N+]=[N-]`, 71.1%; in that of `Cc1cn([C@@H]2C[C@@H](N=[N+]=[N-])[C@H](COP(=O)(O)OP(=O)(O)C(F)(F)P(=O)(O)O)O2)c(=O)[nH]c1=O`, 4.88%. For the molecule `BP(=O)(OC[C@@H]1O[C@H](n2cc(C)c(=O)[nH]c2=O)C[C@H]1N=[N+]=[N-])OP(=O)(O)C(Cl)(Cl)P(=O)(O)O` (some centres not stated), the inhibition was 8.8% and 11%. Under `Cc1cn([C@@H]2C[C@@H](N=[N+]=[N-])[C@H](COP(=O)(O)OP(=O)(O)C(F)(F)P(N)(=O)O)O2)c(=O)[nH]c1=O` stands 5.56%; under `BP(=O)(OC[C@@H]1O[C@H](n2cc(C)c(=O)[nH]c2=O)C[C@H]1N=[N+]=[N-])OP(=O)(O)OP(=O)(O)O` (some centres not stated), 1.1%; under `BP(=O)(OC[C@@H]1O[C@H](n2cc(C)c(=O)[nH]c2=O)C[C@H]1N=[N+]=[N-])OP(=O)(O)C(F)(F)P(=O)(O)O` (some centres not stated), 1.1%.

For `BP(=O)(OC[C@@H]1O[C@H](n2cc(C)c(=O)[nH]c2=O)C[C@H]1N=[N+]=[N-])OP(=O)(O)C(F)P(=O)(O)O` (some centres not stated), the inhibition was found to be 3.2%.

These data come from ChEMBL document CHEMBL1149314, “Synthesis of AZT 5'-triphosphate mimics and their inhibitory effects on HIV-1 reverse transcriptase” (J Med Chem, 2004).
